The source of these data is paper PMC8392292 (Biomedicines, 2021).

Certain results were filed several times, with different values. The other results are left out here. The source may hold further records. The values listed for one entry differ, and nothing given here explains why; they may come from other doses, times, organisms or constructs than stated.

In the test the target is SARS-CoV-2 RdRp (Severe acute respiratory syndrome coronavirus 2, UniProt P0DTD1). Description: Cell-based SARS-CoV-2 RdRp activity assay (NLuc/FLuc reporter, nsp12 only). The following applies: max. dose 4.4 μM; HEK293T, 15 h; tested form: HCl.

Regarding `OC1C=C2CCN3Cc4cc5c(cc4C(C1O)C23)OCO5` (stereo not shown), the “Inhibition % of RdRp Activity at Max. Dose” value was “completely inhibited and 100%”.
